Data as given in PubChem BioAssay AID1259414 (Drosophila RNAi Screening Center, 2018)

Test: 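Fly genes that alter Wolbachia amount inside host cells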 (primary screen)
System: Drosophila JW18 cells infected with Wolbachia
Knock-down reagent: long dsRNA against Drosophila genes, 0.25 µg dsRNA per well of a 384-well plate
Duration: 5 days
Conditions: cells persistently infected with Wolbachia before knock-down; no added drug
Detection: 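Automated imaging of bacterial rRNA staining divided by host cell count, reported as plate-normalised robust z-score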
Reading the numbers: Wolbachia per cell robust z: higher = more Wolbachia per host cell than the plate typical
Rule for the call: 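Active if absolute robust z reaches 1.5 in two or more of three replicates, leaving out multi- or no-target dsRNAs, genes unexpressed in JW18 and A1 wells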
In all, the deposit lists about 24,000 reagents; this is an unselected part of those with a known target gene and a result. Of all reagents, about 1,210 (5%) were called active. 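Inactive calls also include excluded dsRNAs with several or no targets, genes unexpressed in JW18, and well A1, regardless of score.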

Rcd1 [DRSC07116] → Wolbachia per cell robust z, rep 1 = -0.367; Wolbachia per cell robust z, rep 2 = 1.45; Wolbachia per cell robust z, rep 3 = -0.316; call = inactive
Rcd1 [DRSC23713] → Wolbachia per cell robust z, rep 1 = 0.231; Wolbachia per cell robust z, rep 2 = 0.736; Wolbachia per cell robust z, rep 3 = -0.844; call = inactive
CG14314 [DRSC14793] → Wolbachia per cell robust z, rep 1 = 0.436; Wolbachia per cell robust z, rep 2 = -0.179; Wolbachia per cell robust z, rep 3 = -0.95; call = inactive
CG17261 [DRSC00498] → Wolbachia per cell robust z, rep 1 = 0; Wolbachia per cell robust z, rep 2 = -0.0494; Wolbachia per cell robust z, rep 3 = 0.341; call = inactive
CG5535 [DRSC10514] → Wolbachia per cell robust z, rep 1 = 0.523; Wolbachia per cell robust z, rep 2 = 1.27; Wolbachia per cell robust z, rep 3 = 0.628; call = inactive
CG5535 [DRSC29215] → Wolbachia per cell robust z, rep 1 = -0.391; Wolbachia per cell robust z, rep 2 = -0.326; Wolbachia per cell robust z, rep 3 = -0.129; call = inactive
Cpr67Fa2 [DRSC10315] → Wolbachia per cell robust z, rep 1 = -0.27; Wolbachia per cell robust z, rep 2 = -0.212; Wolbachia per cell robust z, rep 3 = -1.03; call = inactive
ms(3)76Ba [DRSC10091] → Wolbachia per cell robust z, rep 1 = -0.243; Wolbachia per cell robust z, rep 2 = 0.643; Wolbachia per cell robust z, rep 3 = -0.0796; call = inactive
Sfp24Bb [DRSC40627] → Wolbachia per cell robust z, rep 1 = -0.367; Wolbachia per cell robust z, rep 2 = 0.455; Wolbachia per cell robust z, rep 3 = -0.793; call = inactive
Vps8 [DRSC09705] → Wolbachia per cell robust z, rep 1 = 0.432; Wolbachia per cell robust z, rep 2 = -0.0297; Wolbachia per cell robust z, rep 3 = 0.231; call = inactive
Ice2 [DRSC14268] → Wolbachia per cell robust z, rep 1 = 0.474; Wolbachia per cell robust z, rep 2 = -0.0643; Wolbachia per cell robust z, rep 3 = 0.154; call = inactive
p115 [DRSC18813] → Wolbachia per cell robust z, rep 1 = -0.489; Wolbachia per cell robust z, rep 2 = -1.31; Wolbachia per cell robust z, rep 3 = -0.185; call = inactive
CG31988 [DRSC22491] → Wolbachia per cell robust z, rep 1 = 1.31; Wolbachia per cell robust z, rep 2 = 0.711; Wolbachia per cell robust z, rep 3 = 0.56; call = inactive
Gr22a [DRSC22283] → Wolbachia per cell robust z, rep 1 = 0.788; Wolbachia per cell robust z, rep 2 = 0.684; Wolbachia per cell robust z, rep 3 = -0.154; call = inactive
Gr22a [DRSC26809] → Wolbachia per cell robust z, rep 1 = 1.31; Wolbachia per cell robust z, rep 2 = 1.25; Wolbachia per cell robust z, rep 3 = -1.29; call = inactive
HipHop [DRSC10734] → Wolbachia per cell robust z, rep 1 = -0.377; Wolbachia per cell robust z, rep 2 = -1.24; Wolbachia per cell robust z, rep 3 = -0.317; call = inactive

2 of these entries, reformatted.
gene | DRSC id | Wolbachia per cell robust z, rep 1 | Wolbachia per cell robust z, rep 2 | Wolbachia per cell robust z, rep 3 | call
Vps8 | DRSC09705 | 0.432 | -0.0297 | 0.231 | inactive
Ice2 | DRSC14268 | 0.474 | -0.0643 | 0.154 | inactive
